# Results: patent publication US8673866B2, “Stabilized formulation for oral administration of therapeutic agents and related methods” (The University of British Columbia, priority 2009, dated 2014)
# Assay: Body and organ weights in the murine VL model
# Assay type: in vivo, BALB/c mice
# Details: 3 mg/kg p.o. qd, individual mice
# Protocol: To determine the anti-leishmanial activity of a representative oral AmpB formulation, the following studies were completed. BALB/c mice were intravenously infected with 5×10^7 Leishmania donovani LV82 promastigotes (obtained by culturing amastigotes taken directly from the spleen of an infected hamster) seven days prior to treatment. Following the seven days, mice were either administered five daily doses of miltefosine at 3 mg/kg po, or Formulation A at 2.5, 5, and 10 mg/kg po bid for five consecutive days or 20 mg/kg po qd for five consecutive days. Appropriate vehicle controls were also assessed. Animals were sacrificed 14 days post infection and Leishman-Donovan units (LDU) were assessed in livers of mice post mortem via microscopic enumeration of Giemsa-stained liver smears
smiles,measurement,value
"CCCCCCCCCCCCCCCCOP(=O)([O-])OCC[N+](C)(C)C [Miltefosine, miltefosine]",Liver weight,1.1060 g and 1.0114 g and 1.1541 g and 1.0693 g
same,Spleen Weight,0.1152 g and 0.1265 g and 0.1216 g and 0.1053 g

# Several values for one entry are separate records, joined by “and”; a condition that tells them apart may be missing. Equal entries are not always repeated.
